Measured values from several laboratories, pooled; numbers as filed in NIAID ChemDB.

All rows: growth or infection tests; organism: Candida albicans; read-out: zone

Blank or dashed fields: not listed here. Zones are inhibition diameters on agar. Two numbers with a dash give a range or band. Neighbouring rows are from separate reports.

structure,tested at,strain,read by,value
CCOC(=O)C1=C(N)Sc2[nH]c(=S)[nH]c(=S)c2C1c1ccc(Cl)cc1,10000 µg/mL,-,agar diffusion / agar,14 mm
CC(=O)Oc1c(-c2ccco2)oc2ccccc2c1=O,100 µg/mL,-,agar diffusion,24 mm
Cc1cccc(CSc2c(O)cc(-c3ccccc3)oc2=O)c1,35 µg/disc,-,agar diffusion,32.5 mm
CC(=O)Oc1c(-c2ccc(F)cc2)oc2ccc(Cl)cc2c1=O,100 µg/mL,-,agar diffusion,19 mm
COc1ccc(-c2csc(NS(=O)(=O)C3C(=O)ONN3c3ccc(C)cc3)n2)cc1,250 µg/mL,MTCC 227,agar diffusion,20 mm
CC(C)=CCOc1ccc(C2CC(=O)c3c(O)cc(O)cc3O2)cc1,100 µg/mL,ATCC 10231,agar diffusion / agar,12 mm
O=C1NC(=S)SC1C(Sc1ccccc1)c1ccc(Br)cc1,100 mg/mL,ATCC 2091,agar diffusion / agar,16–20 mm
C[C@@H]([C@H]1CC[C@H](C)C(=O)C1)[C@H]1CC[C@]2(C)C3=C(CC[C@@]12C)[C@]1(C)CC[C@H](O)C(C)(C)[C@H]1CC3,3 µg/disc,MTCC 183,agar diffusion / agar,20 mm
O=c1c2ccccc2ncn1NC(c1cccc([N+](=O)[O-])c1)P(=O)(Oc1ccccc1)Oc1ccccc1,10 µg/mL,-,agar diffusion / agar,10 mm
CCCCc1nc(Cl)c(-c2cc(-c3ccc([N+](=O)[O-])cc3)nc3c2C(=O)c2ccccc2-3)n1Cc1ccccc1,10 µg/disc,MTCC 7253,agar diffusion,11 mm
O=C1NC(=S)S/C1=C\c1ccco1,100 mg/mL,ATCC 2091,agar diffusion / agar,10–15 mm
CCCCc1nc(Cl)c(-c2cc(-c3ccc4sc5ccccc5c4c3)nc3c2C(=O)c2ccccc2-3)n1Cc1ccccc1,10 µg/disc,MTCC 7253,agar diffusion,14 mm
Cc1nc2ccc(Br)cc2c(=O)n1-c1ccccc1Br,50 µg/mL,-,agar diffusion / agar,25.84 mm
CC(C)(CN=C/C=C/c1ccccc1[N+](=O)[O-])CN=C/C=C/c1ccccc1[N+](=O)[O-],2.5 mg/disc,-,agar diffusion,19.2 mm
CC(C)N(C(C)C)N1C(=O)/C(=C/c2ccccc2)SC1=S,100 mg/mL,ATCC 2091,agar diffusion / agar,10–15 mm
COc1cc(C2C(C#N)=C(NS(=O)(=O)c3ccccc3)Oc3[nH]c(=S)[nH]c(=O)c32)cc(OC)c1OC,10000 µg/mL,-,agar diffusion / agar,12 mm
C=CCN1C(=O)C2(C3=C(C(=O)c4ccccc4C3=O)C3CCCN32)c2ccccc21,50 µg/mL,-,agar diffusion,0 mm
CN[C@@H]1[C@@H](O)[C@@H](O[C@@H]2[C@@H](O)[C@H](O[C@H]3O[C@H](CN)CC[C@H]3N)[C@@H](N)C[C@H]2N)OC[C@]1(C)O,10 µg,WILD TYPE,agar diffusion,6 mm
CCCCc1nc(Cl)c(-c2cc(-c3ccco3)nc3c2C(=O)c2ccccc2-3)n1Cc1ccccc1,10 µg/disc,MTCC 7253,agar diffusion,13 mm
COc1ccccc1N1CCN(c2[nH]c(=O)[nH]c(=O)c2C(C)C)CC1,200 µg/disc,IFO 0583,agar diffusion / agar,<10 mm
Cc1ccc(N2NOC(=O)C2S(=O)(=O)Nc2ccc(-n3c(-c4c(Cl)cccc4[N+](=O)[O-])nc4ccccc4c3=O)cc2)cc1,250 µg/mL,MTCC 227,agar diffusion,21 mm
CC(C)=CCOc1ccc(C2CC(=O)c3c(O)cc(O)cc3O2)cc1O,100 µg/mL,ATCC 14053,agar diffusion / agar,0 mm
CCN(CC)N1C(=O)C(C(Sc2ccccc2)c2ccc3ccccc3c2)SC1=S,100 mg/mL,ATCC 2091,agar diffusion / agar,16–20 mm
CN(C)[C@@H]1C(=O)C(C(N)=O)=C(O)[C@@]2(O)C(=O)C3=C(O)c4c(O)cccc4[C@@](C)(O)[C@H]3C[C@@H]12,30 µg,WILD TYPE,agar diffusion,6 mm
CC(=O)Oc1c(-c2ccco2)oc2ccc(Cl)cc2c1=O,100 µg/mL,-,agar diffusion,25 mm
Cc1nc2ccc(Br)cc2c(=O)n1-c1ccccc1[N+](=O)[O-],50 µg/mL,-,agar diffusion / agar,15.96 mm
Clc1ccccc1C(c1ccccc1)(c1ccccc1)n1ccnc1,40000 µg/mL,-,agar diffusion / agar,20 mm
CN(C)c1ccc(-c2oc3ccccc3c(=O)c2O)cc1,100 µg/mL,-,agar diffusion,14 mm
Cc1nc2ccc(Br)cc2c(=O)n1-c1ccccc1,50 µg/mL,-,agar diffusion / agar,11.87 mm
O=c1c(O)c(-c2ccccc2)oc2ccc(Cl)cc12,100 µg/mL,-,agar diffusion,14 mm
CCCc1c(N2CCN(C(=O)OCC)CC2)[nH]c(=O)[nH]c1=O,200 µg/disc,IFO 0583,agar diffusion / agar,<10 mm
Cc1cccc(C(Sc2ccccc2)C2SC(=S)NC2=O)c1,100 mg/mL,ATCC 2091,agar diffusion / agar,16–20 mm
CCCCc1nc(Cl)c(-c2cc(-c3ccccc3)nc3c2C(=O)c2ccccc2-3)n1Cc1ccccc1,10 µg/disc,MTCC 7253,agar diffusion,10 mm
CCc1c(N2CCN(c3ccccc3)CC2)[nH]c(=O)[nH]c1=O,200 µg/disc,IFO 0583,agar diffusion / agar,<10 mm
Cc1ccc2c(c1)C1(C(=O)N2)C2=C(C(=O)c3ccccc3C2=O)C2CCCN21,50 µg/mL,-,agar diffusion,0 mm
[Na+].[O-]Cl,50000 µg/mL,ATCC 10231,agar diffusion,19 mm
C[C@@H]1[C@H](O)[C@@H](C)/C=C/C=C/CC/C=C/C=C/C=C/C=C/C(O[C@H]2O[C@H](C)[C@@H](O)[C@H](N)[C@@H]2O)CC2O[C@](O)(CC(O)C(O)CCC(O)CC(O)CC(O)CC(=O)O[C@H]1C)CC(O)C2C(=O)O,100 µg/mL,ATCC 10231,agar diffusion / agar,12 mm
Cc1nc2ccc(Br)cc2c(=O)n1-c1ccc(Br)cc1,50 µg/mL,-,agar diffusion / agar,26.73 mm
Cc1cc(Cl)nc(NC(c2cccc([N+](=O)[O-])c2)P(=O)(Oc2ccccc2)Oc2ccccc2)n1,10 µg/mL,-,agar diffusion / agar,17 mm
CC(=O)Oc1c(-c2ccc(F)cc2)oc2ccccc2c1=O,100 µg/mL,-,agar diffusion,18 mm
Cc1cc(Cl)nc(N)n1,10 µg/mL,-,agar diffusion / agar,7 mm
CCCc1c(=O)[nH]c(=O)n2[nH]nnc12,200 µg/disc,IFO 0583,agar diffusion / agar,<10 mm
CC(C)=CCC[C@@H](C)CC=O,35 µg/disc,-,agar diffusion,35 mm
CC(=O)OCC1=C(C(=O)O)N2C(=O)[C@@H](NC(=O)Cc3cccs3)[C@H]2SC1,30 µg,ATCC 10231,agar diffusion,6 mm
Clc1ccccc1C(c1ccccc1)(c1ccccc1)n1ccnc1,100 µg/mL,-,agar diffusion,23 mm
O=c1c2ccccc2ncn1NC(c1ccc(O)cc1O)P(=O)(Oc1ccccc1)Oc1ccccc1,10 µg/mL,-,agar diffusion / agar,14 mm
COc1ccc(-c2oc3ccccc3c(=O)c2OC(C)=O)cc1OC,100 µg/mL,-,agar diffusion,14 mm
O=c1ccc2cc3c(=O)[nH]c(=S)[nH]c3oc-2c1,10000 µg/mL,-,agar diffusion / agar,0 mm
CCc1c(N2CCN(c3ccccc3OC)CC2)[nH]c(=O)[nH]c1=O,200 µg/disc,IFO 0583,agar diffusion / agar,<10 mm
CCN(CC)N1C(=O)C(C(Sc2ccccc2)c2ccc(C)cc2C)SC1=S,100 mg/mL,ATCC 2091,agar diffusion / agar,16–20 mm
CCc1c(=O)[nH]c(=O)n2[nH]nnc12,200 µg/disc,IFO 0583,agar diffusion / agar,<10 mm
O=C1NC(=S)S/C1=C\c1cccs1,100 mg/mL,ATCC 2091,agar diffusion / agar,5–9 mm
Cc1ccc(N2NOC(=O)C2S(=O)(=O)Nc2nc(-c3ccc([N+](=O)[O-])cc3)cs2)cc1,250 µg/mL,MTCC 227,agar diffusion,17 mm
CCCc1c(N2CCN(c3cccc(C(F)(F)F)c3)CC2)[nH]c(=O)[nH]c1=O,200 µg/disc,IFO 0583,agar diffusion / agar,<10 mm

The first 5 rows once more:

| structure | tested at | strain | read by | value |
|---|---|---|---|---|
| CCOC(=O)C1=C(N)Sc2[nH]c(=S)[nH]c(=S)c2C1c1ccc(Cl)cc1 | 10000 µg/mL | - | agar diffusion / agar | 14 mm |
| CC(=O)Oc1c(-c2ccco2)oc2ccccc2c1=O | 100 µg/mL | - | agar diffusion | 24 mm |
| Cc1cccc(CSc2c(O)cc(-c3ccccc3)oc2=O)c1 | 35 µg/disc | - | agar diffusion | 32.5 mm |
| CC(=O)Oc1c(-c2ccc(F)cc2)oc2ccc(Cl)cc2c1=O | 100 µg/mL | - | agar diffusion | 19 mm |
| COc1ccc(-c2csc(NS(=O)(=O)C3C(=O)ONN3c3ccc(C)cc3)n2)cc1 | 250 µg/mL | MTCC 227 | agar diffusion | 20 mm |